Values from PubChem BioAssay AID504761 (Drosophila RNAi Screening Center, 2011).
Assay: 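Fly genes whose silencing reduces dengue virus type 2 infection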 (primary screen). Cell system: D.Mel-2 cells from Drosophila. Knock-down reagent: long dsRNA against Drosophila genes. Challenge: infection with dengue virus type 2; dose and infection time not stated. Detection: 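Cells stained for dengue envelope protein and imaged; percent of infected cells per well on duplicate plates, ranked by infection, with stained nuclei counted for cell number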. Reading the numbers: infection score: higher = more virus-infected cells. Active means: 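Low infection ranks in the two replicates (chance level up to 0.065) followed by a retest with a 1.5-fold or larger significant decrease, p below 0.05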. Meaning of the calls: active = confirmed: knock-down lowers infection; inactive = not picked or not confirmed.
The screen tested about 22,000 reagents; below is an unselected part of those that have a named target and a result. Over the whole deposit, 116 (0.52%) were called active. 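Calls depend on retest data that are not deposited; infection was ranked per plate without normalising between plates; the unit of the infection score is not given.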 Unmarked entries are inactive. Not all columns of the deposit are shown. The record does not give: the amount of reagent, the time to read-out.

| gene | amplicon | infection score, replicate 1 | infection score, replicate 2 |
| --- | --- | --- | --- |
| CG3036 | DRSC00260 | 2.48 | 0.89 |
| CG3036 | DRSC00562 | 3.42 | 7.29 |
| CG3036 | DRSC24856 | 4.5 | 7.76 |
| didum (dilute class unconventional myosin) | DRSC07603 | 3.06 | 5.83 |
| Or59b (Odorant receptor 59b) | DRSC04632 | 4.99 | 7.55 |
| Dp1 (Dodeca-satellite-binding protein 1) | DRSC07403 | 4.21 | 9 |
| CG13305 | DRSC24957 | 4.58 | 1.18 |
| CG5539 | DRSC04510 | 3.55 | 4.2 |
| CG14182 | DRSC10181 | 5.3 | 15.2 |
| CG17260 | DRSC00497 | 1.98 | 2.15 |
| CG17260 | DRSC29415 | 13 | – |
| CAH2 (Carbonic anhydrase 2) | DRSC10746 | 1.41 | 1.41 |
| fat-spondin | DRSC07617 | 8.3 | 6.51 |
| Gk2 (Glycerol kinase 2) | DRSC08610 | 5.03 | 10.8 |
| CG31921 | DRSC00013 | 6.11 | 3.02 |
| DENR (Density regulated protein) | DRSC20151 | 8.08 | 4.05 |
| Pp1-87B (Protein phosphatase 1 at 87B) | DRSC16794 | 13.4 | 15.8 |
| Pp1-87B (Protein phosphatase 1 at 87B) | DRSC23299 | 8.87 | 2.86 |
| Pp1-87B (Protein phosphatase 1 at 87B) | DRSC27290 | 19.7 | 14 |
| CG4269 | DRSC04457 | 15.6 | 22.8 |
| Cyp4d2 (Cytochrome P450 4d2) | DRSC18458 | 1.59 | 21.8 |
| CR31822 (pseudo) | DRSC01510 | 1.05 | 4.43 |
| HDAC6 (Histone deacetylase 6) | DRSC20252 | 2.95 | 1.36 |
| HDAC6 (Histone deacetylase 6) | DRSC29348 | 14.9 | 1.23 |
| Jhbp14 (Juvenile hormone binding protein 14) | DRSC01988 | 4.5 | 2 |
| Cals (Calsyntenin) | DRSC17196 | 9.18 | 6.47 |
| Cals (Calsyntenin) | DRSC21661 | 2.64 | 4.74 |
| Zdhhc8 (Zinc finger DHHC-type containing 8) | DRSC18044 | 3.27 | 3.16 |
| Zdhhc8 (Zinc finger DHHC-type containing 8) | DRSC18122 | 3.09 | 9.5 |
| sprt (sprite) | DRSC07323 | 30.6 | 5.57 |
| hook | DRSC03545 | 13.5 | 4.47 |
| Or46a (Odorant receptor 46a) | DRSC07489 | 30.1 | 17.4 |
| Or46a (Odorant receptor 46a) | DRSC07490 | 6.57 | 12.1 |
| Or46a (Odorant receptor 46a) | DRSC21590 | 25.6 | 15.9 |
| Or46a (Odorant receptor 46a) | DRSC29654 | 23.4 | 27 |
| Obp83ef (Odorant-binding protein 83ef) | DRSC12268 | 1.84 | 5.71 |
| Obp83ef (Odorant-binding protein 83ef) | DRSC30027 | 4.92 | 10.7 |
| Ir48a (Ionotropic receptor 48a) | DRSC05301 | 0.84 | 2.15 |
| bin3 (bicoid-interacting protein 3) | DRSC04919 | 10.8 | 11.7 |
| bonsai | DRSC04453 | 12.5 | 16.9 |
| bonsai | DRSC24153 | 4.06 | 3.64 |
| Reck (Reversion-inducing-cysteine-rich protein with kazal motifs) | DRSC10504 | 8.86 | 13.6 |
| Reck (Reversion-inducing-cysteine-rich protein with kazal motifs) | DRSC10505 | 2.53 | 1.69 |
| Cp18 (Chorion protein 18) | DRSC11120 | 0.75 | 1.88 |
| yellow-e2 | DRSC15169 | 3.06 | 17.5 |
| Lrrk (Leucine-rich repeat kinase) | DRSC15816 | 3.92 | 19.1 |
| Lrrk (Leucine-rich repeat kinase) | DRSC21971 | 6.51 | 0.52 |
| Lrrk (Leucine-rich repeat kinase) | DRSC26140 | 1.67 | 4 |
| ftz-f1 (ftz transcription factor 1) | DRSC25015 | 5.2 | 1.61 |
| Tsp42El (Tetraspanin 42El) | DRSC06186 | 23.4 | 25.6 |
| Ada3 (transcriptional Adaptor 3) | DRSC20321 | 7.02 | 6.28 |
| Ada3 (transcriptional Adaptor 3) | DRSC20322 | 7.83 | 5.22 |
| CG1421 | DRSC03707 | 7.36 | 12.6 |
| CG4575 (retired record) | DRSC18372 | 35.7 | 19.9 |
| CG4537 | DRSC02756 | 5.57 | 6.63 |
| CG7443 | DRSC16244 | 6.38 | 6.82 |
| Sry-alpha (Serendipity alpha) | DRSC16867 | 6.58 | – |
| Sry-alpha (Serendipity alpha) | DRSC29189 | 12.2 | 12.1 |

Already shown: entries from further up.
| gene | amplicon | infection score, replicate 1 | infection score, replicate 2 |
| --- | --- | --- | --- |
| Obp83ef (Odorant-binding protein 83ef) | DRSC30027 | 4.92 | 10.7 |
| Ir48a (Ionotropic receptor 48a) | DRSC05301 | 0.84 | 2.15 |
| bin3 (bicoid-interacting protein 3) | DRSC04919 | 10.8 | 11.7 |
